Pooled drug test results. Numbers come from NIAID ChemDB, via PubChem.

Common to all: growth or infection tests; species: Herpes simplex virus 1; cell line: VERO; endpoint: EC50

Lines come from different laboratories, so protocols vary. An empty or dashed field is not shown. ECn is the concentration giving n% inhibition of infection, replication or growth.

SMILES	strain	read by	value
C[C@]1(CO)[C@@H](Cn2cnc3c(=O)[nH]c(N)nc32)C1(F)F	HF	-	>100 µM
C[C@H]1C/C=C/CC/C=C/C(=O)Cc2cccc(O)c2C(=O)O1	Strain F	cytopathic effect	>50 µM
Nc1ncnc2c1c(Br)cn2COCCO	-	cytopathic effect	23.74 µM
COc1cc(OC)c(NC(=S)Nc2ccc(NC(C)=O)cc2)cc1Cl	-	ELISA	50 µg/mL
Nc1nc2c(ncn2[C@@H]2O[C@H](CO)[C@@H](O)[C@H]2O)c(=O)o1	-	plaque count	0.24 µM
Cn1cc(C(=O)NCc2ccc(Cl)cc2)c(=O)c2cc(CN3CCOCC3)ccc21	KOS-M1	plaque count	>50 µM
CC[C@H](N)C(=O)OCCOCn1cnc2c(=O)[nH]c(N)nc21	SC16	-	<10 µM
Nc1nc2c(ncn2C[C@]2(CO)C[C@H]2CO)c(=O)[nH]1	-	plaque count	0.02 µg/mL
Nc1nc2c(ncn2COCCOC(=O)C(N)Cc2ccccc2)c(=O)[nH]1	SC16	-	0.93 µM
Cn1cc(C(=O)NCc2ccc(Cl)cc2)c(=O)c2cc(/C=C\CO)cc(F)c21	DJL-M1	plaque count	>20 µM
COc1cccc2c1C(=O)c1c(O)c3c(c(O)c1C2=O)C[C@@](O)(C(C)=O)C[C@@H]3O[C@H]1C[C@H](N)[C@H](O)[C@H](C)O1	-	virus yield	>1 µM
CCCCC(C)(C)[C@H](O)/C=C/[C@H]1C=CC(=O)[C@@H]1CCCCCCC(=O)O	H198	hybridisation	3.8 µg/mL
Nc1ncnc2c1ncn2[C@@H]1C[C@H](CO)[C@@H](O)[C@@H]1O	KOS	plaque count	20 µg/mL
O=C(/C=C/c1ccc(O)c(O)c1)O[C@@H]1CC(O)(C(=O)O)C[C@@H](OC(=O)/C=C/c2ccc(O)c(O)c2)C1O	MacIntyre	cytopathic effect	>100 µM
[N-]=[N+]=NC[C@H]1O[C@@H](n2cc(I)c(=O)[nH]c2=O)C[C@@H]1O	-	plaque count	>100 µM
C=CCN(c1ccc(NC(=S)Nc2ccc(NC(C)=O)cc2)cc1Cl)C1CCCCC1	-	ELISA	>50 µg/mL
NC(N)=N/N=C1/C/C(=N\N=C(N)N)c2cc3ccccc3cc21	13	virus yield	1.5 µM
Cc1cn(CC2(CO)CC2CO)c(=O)[nH]c1=O	-	plaque count	>500 µg/mL
CC(C)[C@H](N)C(=O)OCCOCn1cnc2c(=O)[nH]c(N)nc21	SC16	-	0.84 µM
Cn1cc(CCCCOc2ccc(C(=O)O)cc2)cc1C=O	-	plaque count	>380 µM
Cc1cc(C2CCCCC2)n(O)c(=O)c1	Clinical isolate	plaque count	0.27 µM
Nc1ccn(C[C@H]2C[C@H]2CO)c(=O)n1	-	-	>50 µM
Cc1cn([C@H]2C[C@H](O)[C@@H](CN)O2)c(=O)[nH]c1=O	-	plaque count	<100 µM
Nc1nc2c(ncn2COCCO)c(=O)[nH]1	KOS	plaque count	0.6 µg/mL
C[C@H]1C[C@H](O)C(Cl)/C=C\C=C\C(=O)Cc2c(Cl)c(O)cc(O)c2C(=O)O1	Strain F	cytopathic effect	>50 µM
Nc1ccn([C@@H]2O[C@H](CO)[C@@H](O)[C@@H]2O)c(=O)n1	KOS	cytopathic effect	0.34 µM
Nc1nc2c(ncn2CC[C@H](O)CO)c(=O)[nH]1	C42	plaque count	13 µM
CC1(C)C[C@H]2[C@H](OC(=O)[C@H](O)[C@@H](NC(=O)c3ccccc3)c3ccccc3)c3cocc3C[C@](C)(O)[C@H]2C1	McIntyre	cytopathic effect	15 µg/mL
Cn1cc(CCCCOc2ccc(C3=NCCO3)cc2)cc1C=O	-	plaque count	>280 µM
CC1(C)C[C@H]2[C@@H](OC(=O)[C@H](O)[C@@H](NC(=O)c3ccccc3)c3ccccc3)C34COC(=O)C3(C4)C[C@@](C)(O)[C@H]2C1	McIntyre	cytopathic effect	4.2 µg/mL
NC1=NC2C(C=CN2CC(CO)CCO)C(=O)N1	-	cytopathic effect	5.3 µg/mL
CC(=O)Nc1ccc(NC(=S)Nc2ccc(N(C)CCO)c(Cl)c2)cc1	-	ELISA	>50 µg/mL
O=c1ccn(C[C@H]2C[C@H]2CO)c(=O)[nH]1	-	-	>50 µM
CC(C)c1ccc(O)c(O)c(=O)c1	Clinical isolate	plaque count	1.94 µM
CC1(C)C[C@H]2[C@H](OC(=O)[C@H](O)[C@@H](NC(=O)c3ccccc3)c3ccccc3)C3=C(COC3=O)C[C@](C)(O)[C@H]2C1	McIntyre	cytopathic effect	3.4 µg/mL
CC(=O)OCCOCn1cnc2c(=O)oc(N)nc21	-	plaque count	420 µM
CC(=O)O[C@H]1C[C@](C)(O)/C=C/C[C@@H](C)/C=C/[C@@]2(C)CC[C@@H](C(C)(C)OC(C)=O)[C@H]12	-	cytopathic effect	<15 µM
Nc1ncnc2c1ncn2C[C@H]1C[C@H]1CO	-	-	>50 µM
Nc1ccn(COC(CO)CO)c(=O)n1	ICI	plaque count	140 µM
C[C@H]1C/C=C/CC/C=C/C(=O)Cc2c(Cl)c(O)cc(O)c2C(=O)O1	Strain F	cytopathic effect	1.5 µM
C[C@]1(CO)[C@H](Cn2cnc3c(=O)[nH]c(N)nc32)C1(F)F	HF	-	>100 µM
Nc1ncnc2c1ncn2COC1COP(=O)(O)OC1	F	plaque count	60 µM
Nc1nc2c(ncn2COC(CO)CO)c(=O)[nH]1	-	cytopathic effect	1 µg/mL
O=c1ccn(C[C@H]2C[C@H]2[C@H](O)CO)c(=O)[nH]1	-	-	>50 µM
Nc1nc(=O)n([C@@H]2OC3COP(=O)([O-])OC3[C@H]2O)cc1F	KOS	cytopathic effect	220 µM
Nc1nc2c(ncn2CCC(CO)CO)c(=O)[nH]1	TK-	cytopathic effect	>100 µg/mL
Nc1nc2c(ncn2CCCCO)c(=O)[nH]1	7935-72	plaque count	2 µM
Cc1c(NC(=O)COCc2ccccc2)ccc2nc(N(C(C)C)C(C)C)oc(=O)c12	-	plaque count	11.2 µM
COCc1cn([C@H]2C[C@H](O)[C@@H](CO)O2)c(=O)nc1N	76	plaque count	26 µM
CC(C)=CCc1ccc(O)c(=O)cc1C(C)C	Clinical isolate	plaque count	0.24 µM
Nc1nc2c(ncn2[C@@H]2C[C@H](CO)[C@H]2CO)c(=O)[nH]1	-	cytopathic effect	1.8 µg/mL
NC[C@H]1O[C@@H](n2cc(Cl)c(=O)[nH]c2=O)C[C@@H]1O	-	plaque count	<100 µM
CC(C)C[C@H](N)C(=O)OCCOCn1cnc2c(=O)[nH]c(N)nc21	SC16	-	1.25 µM

8 of the rows above, restated:

SMILES	strain	read by	value
Nc1nc2c(ncn2[C@@H]2C[C@H](CO)[C@H]2CO)c(=O)[nH]1	-	cytopathic effect	1.8 µg/mL
CC1(C)C[C@H]2[C@H](OC(=O)[C@H](O)[C@@H](NC(=O)c3ccccc3)c3ccccc3)C3=C(COC3=O)C[C@](C)(O)[C@H]2C1	McIntyre	cytopathic effect	3.4 µg/mL
Nc1nc2c(ncn2COCCOC(=O)C(N)Cc2ccccc2)c(=O)[nH]1	SC16	-	0.93 µM
CC(C)C[C@H](N)C(=O)OCCOCn1cnc2c(=O)[nH]c(N)nc21	SC16	-	1.25 µM
O=C(/C=C/c1ccc(O)c(O)c1)O[C@@H]1CC(O)(C(=O)O)C[C@@H](OC(=O)/C=C/c2ccc(O)c(O)c2)C1O	MacIntyre	cytopathic effect	>100 µM
C=CCN(c1ccc(NC(=S)Nc2ccc(NC(C)=O)cc2)cc1Cl)C1CCCCC1	-	ELISA	>50 µg/mL
CC(=O)OCCOCn1cnc2c(=O)oc(N)nc21	-	plaque count	420 µM
O=c1ccn(C[C@H]2C[C@H]2CO)c(=O)[nH]1	-	-	>50 µM